Measured values from several laboratories, pooled; numbers as filed in NIAID ChemDB.

Shared fields: whole-cell or culture tests; species: Candida krusei

Percent inhibition refers to the dose given; in toxicity tests it is the harm to the cells. MIC50, MIC90 and the like: level of inhibition, or share of isolates inhibited. Lines come from different laboratories, so protocols vary. Blank or dashed fields: not listed here.

compound,strain or isolate,method,endpoint,dose,value
Cc1ccc(-n2cc(C(C)(C)O)nn2)cc1C,URM 4263,broth dilution,inhibition,2048 µg/mL,0%
C=CCc1ccc(Cn2cc(CN3CCN([C@H](C)[C@](O)(Cn4cncn4)c4ccc(F)cc4F)CC3)c3ccccc32)cc1,ATCC 6258,resazurin,MIC80,-,2 µg/mL
c1ccc(C(c2ccccc2)n2cnc3ccccc32)cc1,-,agar,MIC90,-,>256 µg/mL
CCCCCCCCCn1cc[n+](COCCOC[n+]2ccn(CCCCCCCCC)c2)c1,ATCC 6258,agar diffusion,MIC100,-,2 µM
CC(C)(O)c1cn(-c2ccc([N+](=O)[O-])cc2)nn1,URM 4263,broth dilution,inhibition,2048 µg/mL,0%
c1ccc(C(c2ccccc2)n2nnc3ccccc32)cc1,-,broth dilution,MFC,-,>256 µg/mL
CCCCCCn1cc[n+](COCCCCOC[n+]2ccn(CCCCCC)c2)c1,ATCC 6258,agar diffusion,MIC100,-,326 µM
CC(C)(O)c1cn(-c2cccc3ccccc23)nn1,URM 934,broth dilution,inhibition,2048 µg/mL,0%
COc1ccc(C(c2ccc(OC)cc2)n2cncn2)cc1,-,agar,MIC90,-,>256 µg/mL
CCCCCCCCCCCCn1cc[n+](COCCCCOC[n+]2ccn(CCCCCCCCCCCC)c2)c1,ATCC 6258,agar diffusion,MIC100,-,8 µM
CCC(C)CC(C)CCCCCCCCC(=O)N[C@H]1C[C@@H](O)[C@H](NCCN)NC(=O)[C@@H]2[C@@H](O)CCN2C(=O)[C@H]([C@H](O)CCN)NC(=O)[C@H]([C@H](O)[C@@H](O)c2ccc(O)cc2)NC(=O)[C@@H]2C[C@@H](O)CN2C(=O)[C@H]([C@@H](C)O)NC1=O,ATCC 6258,broth dilution,MIC50,-,0.25 µg/mL
CCCCn1cc[n+](COCCCCCCOC[n+]2ccn(CCCC)c2)c1,6258,agar diffusion,MIC100,-,669 µM
Clc1ccc(C(c2ccccc2)n2ccnc2)cc1,-,broth dilution,MFC,-,0.5 µg/mL
C[C@@H](N1CCN(Cc2cn(-c3ccc(F)cc3)c3ccccc23)CC1)[C@](O)(Cn1cncn1)c1ccc(F)cc1F,ATCC 6258,resazurin,MIC80,-,0.5 µg/mL
C=CCc1ccc(OC)c(OC)c1,342,turbidity,MIC90,-,345 µg/mL
CC(C)CC(=O)C(=O)O,D 206 B,broth dilution,MFC100,-,>72000 µg/mL
C[C@@H](N1CCN(Cc2cn(Cc3ccc(Cl)cc3Cl)c3c(F)cccc23)CC1)[C@](O)(Cn1cncn1)c1ccc(F)cc1F,ATCC 6258,resazurin,MIC80,-,1 µg/mL
c1ccc(C(c2ccccc2)n2cncn2)cc1,-,agar,MIC90,-,>256 µg/mL
C[C@@H](N1CCN(Cc2cn(Cc3ccc(F)cc3)c3c(Cl)cccc23)CC1)[C@](O)(Cn1cncn1)c1ccc(F)cc1F,ATCC 6258,resazurin,MIC80,-,1 µg/mL
CCCCCCCCCCCCn1cc[n+](COCCCOC[n+]2ccn(CCCCCCCCCCCC)c2)c1,ATCC 6258,agar diffusion,MIC100,-,8 µM
C[C@@H](N1CCN(Cc2cn(Cc3ccc(F)cc3)c3ccccc23)CC1)[C@](O)(Cn1cncn1)c1ccc(F)cc1F,ATCC 6258,resazurin,MIC80,-,1 µg/mL
O=C(c1ccccc1)C(c1ccccc1)n1cncn1,-,broth dilution,MFC,-,>256 µg/mL
C[C@@H](N1CCN(Cc2cn(Cc3ccc(F)cc3F)c3cc(Cl)ccc23)CC1)[C@](O)(Cn1cncn1)c1ccc(F)cc1F,ATCC 6258,resazurin,MIC80,-,0.5 µg/mL
CC(C)(O)c1cn(-c2ccc3ccccc3c2)nn1,URM 109,broth dilution,inhibition,2048 µg/mL,0%
C[C@@H](N1CCN(Cc2cn(Cc3cccc(C(F)(F)F)c3)c3ccccc23)CC1)[C@](O)(Cn1cncn1)c1ccc(F)cc1F,ATCC 6258,resazurin,MIC80,-,1 µg/mL
CC(C)CC(O)C(=O)O,ATCC 6258,broth dilution / visual reading,MFC100,-,72000 µg/mL

The last 4 rows once more:

compound,strain or isolate,method,endpoint,dose,value
C[C@@H](N1CCN(Cc2cn(Cc3ccc(F)cc3F)c3cc(Cl)ccc23)CC1)[C@](O)(Cn1cncn1)c1ccc(F)cc1F,ATCC 6258,resazurin,MIC80,-,0.5 µg/mL
CC(C)(O)c1cn(-c2ccc3ccccc3c2)nn1,URM 109,broth dilution,inhibition,2048 µg/mL,0%
C[C@@H](N1CCN(Cc2cn(Cc3cccc(C(F)(F)F)c3)c3ccccc23)CC1)[C@](O)(Cn1cncn1)c1ccc(F)cc1F,ATCC 6258,resazurin,MIC80,-,1 µg/mL
CC(C)CC(O)C(=O)O,ATCC 6258,broth dilution / visual reading,MFC100,-,72000 µg/mL